# Source: patent US20140256664A1, “COMPOSITIONS AND METHODS FOR A MYCOBACTERIUM TUBERCULOSIS DRUG SUSCEPTIBILITY TEST” (priority 2011, published 2014)
# Assays:
# [1] = tested on: M. tuberculosis isolates; assay: Standard agar proportion method; type: cell-based, Mycobacterium tuberculosis; details: isolates with no mutation in rpoB
# [2] = tested on: 33 isolates of M. tuberculosis; assay: D29 phage-qPCR drug susceptibility assay, 33 isolates; type: cell-based, Mycobacterium tuberculosis; details: isolates with no mutation in rpoB
compound,measurement,setting,value
"CO[C@H]1/C=C/O[C@@]2(C)Oc3c(C)c(O)c4c(O)c(c(/C=N/N5CCN(C)CC5)c(O)c4c3C2=O)NC(=O)/C(C)=C\C=C\[C@H](C)[C@H](O)[C@@H](C)[C@@H](O)[C@@H](C)[C@H](OC(C)=O)[C@@H]1C [Rifampin, rifampin]",Agar proportion Resistant (n isolates),[1],0
same,D29 phage assay Resistant (n isolates),[2],0
